Test results taken from publication PMC4043881.
Construct, isoform or probe ends are uncertain for at least one entry.

By UniProt entry, the sequences of proteins in these tests, tags left out. Chains listed by the source or under a name are the forms on record and can include a tag or linker. Residues count along the entry.
UniProt O25671, 1-149, tags or fused parts left off: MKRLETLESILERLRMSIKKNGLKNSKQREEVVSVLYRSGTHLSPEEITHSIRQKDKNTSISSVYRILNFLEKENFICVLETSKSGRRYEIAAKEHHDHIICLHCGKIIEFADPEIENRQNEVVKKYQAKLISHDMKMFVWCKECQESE

Biological target: Fur (UniProt O25671)
Assay: DNase I footprinting
Settings: 10 mM Tris-Cl pH 7.85, 50 mM NaCl, 10 mM KCl, 0.02% Igepal CA-630, 10% glycerol, 5 mM DTT, 150 uM (NH4)2Fe(SO4)2 or 150 uM 2,2-dipyridyl, 300 ng salmon sperm DNA, recombinant protein, protein details: His6 N-terminal tag removed by thrombin, label: 5'-32P at NcoI end, probe letters rebuilt from the primers and the genome, part of a longer molecule
[1] = holo-Fur, 150 uM (NH4)2Fe(SO4)2

Sequence	binding result [1]	binding result (apo-Fur, 150 uM 2,2-dipyridyl)
TACCTAGTTTCATACCTATCGGTATCTTGTTGGTATCAAAGACTGCTAAAAACTGCTACACACTTGAGTAATCAATTCATGTCTTTGAACATTACCATTATACCACAATAATCAAGATCAAGCATTTTTTTTTCATTAATCATTATTAATATTGAAAAAAGCCCGATCGTTGCAGGCGTCTAAAGGCTAGGAACGATTCACATTTTTACCCACAATTAACAAAAATTTGCTAAAATGAACGAATTTTAACAAAGAAAAGAAATAAGAAATGAACCTTCAAGAATAAATCAAATGCAATGCTTAAATATAGTTGGAATCAAGGTGAGTGCATGAAGCGTTCTAAAAATGGTTTGGTTTGTGTGTCATGCTTACCATAAAGTATATA (double strand) [PcagA-PcagB intergenic probe, operator III]	binds	
TACCTAGTTTCATACCTATCGGTATCTTGTTGGTATCAAAGACTGCTAAAAACTGCTACACACTTGAGTAATCAATTCATGTCTTTGAACATTACCATTATACCACAATAATCAAGATCAAGCATTTTTTTTTCATTAATCATTATTAATATTGAAAAAAGCCCGATCGTTGCAGGCGTCTAAAGGCTAGGAACGATTCACATTTTTACCCACAATTAACAAAAATTTGCTAAAATGAACGAATTTTAACAAAGAAAAGAAATAAGAAATGAACCTTCAAGAATAAATCAAATGCAATGCTTAAATATAGTTGGAATCAAGGTGAGTGCATGAAGCGTTCTAAAAATGGTTTGGTTTGTGTGTCATGCTTACCATAAAGTATATA (double strand) [PcagA-PcagB intergenic probe, operator II]	binds	
TACCTAGTTTCATACCTATCGGTATCTTGTTGGTATCAAAGACTGCTAAAAACTGCTACACACTTGAGTAATCAATTCATGTCTTTGAACATTACCATTATACCACAATAATCAAGATCAAGCATTTTTTTTTCATTAATCATTATTAATATTGAAAAAAGCCCGATCGTTGCAGGCGTCTAAAGGCTAGGAACGATTCACATTTTTACCCACAATTAACAAAAATTTGCTAAAATGAACGAATTTTAACAAAGAAAAGAAATAAGAAATGAACCTTCAAGAATAAATCAAATGCAATGCTTAAATATAGTTGGAATCAAGGTGAGTGCATGAAGCGTTCTAAAAATGGTTTGGTTTGTGTGTCATGCTTACCATAAAGTATATA (double strand) [PcagA-PcagB intergenic probe, operator IV]		binds
TACCTAGTTTCATACCTATCGGTATCTTGTTGGTATCAAAGACTGCTAAAAACTGCTACACACTTGAGTAATCAATTCATGTCTTTGAACATTACCATTATACCACAATAATCAAGATCAAGCATTTTTTTTTCATTAATCATTATTAATATTGAAAAAAGCCCGATCGTTGCAGGCGTCTAAAGGCTAGGAACGATTCACATTTTTACCCACAATTAACAAAAATTTGCTAAAATGAACGAATTTTAACAAAGAAAAGAAATAAGAAATGAACCTTCAAGAATAAATCAAATGCAATGCTTAAATATAGTTGGAATCAAGGTGAGTGCATGAAGCGTTCTAAAAATGGTTTGGTTTGTGTGTCATGCTTACCATAAAGTATATA (double strand) [PcagA-PcagB intergenic probe, operator I]		binds
